Data: patent US5633231A, “Valine-containing pseudopeptides with antiviral activity” (Bayer Aktiengesellschaft, priority 1993, dated 1997)

Tests used:
[1] = biological target: HIV protease (HIV-1) (Human immunodeficiency virus type 1 group M subtype B, UniProt P04585); test: HIV-specific protease enzyme test, cleavage of synthetic gag peptide analysed by RP-HPLC; conditions: read-out: IC50 (RP-HPLC) (μM) HIV-1, purified HIV protease, synthetic peptide substrate
Method: This is verified using a HIV-specific protease enzyme test.
The results for the examples listed below were obtained using the HIV test system described in the following literature reference [cf. Hansen, J., Billich, S., Schulze, T., Sukrow, S. and M olling, K. (1988), EMBO Journal, Vol. 7, No. 6, pp. 1785-1791]: purified HIV protease was incubated together with synthetic peptide which imitates a cleavage site in the gag precursor protein and represents an in-vivo cleavage site for protease. The resulting cleavage products from the synthetic peptide were analysed by reverse phase high performance liquid chromatography (RP-HPLC). The IC50 values which are given refer to the substance concentration which elicits 50% inhibition of the protease activity under the above-listed test conditions.

[2] = tested on: HCMV (Davis); test: Anti-HCMV (Davis) activity: inhibition of the cytopathogenic effect in HELF cell cultures, 96-well screening test; assay type: cell-based, human cytomegalovirus; conditions: read-out: IC50 (μM) (HCMV) = concentration which elicits 50% inhibition of the CPE; HCMV (Davis)-infected HELF cells, 6 days, neutral red staining

## Cc1ccc(S(=O)(=O)N=C(N)NCCC[C@H](NC(=O)c2cnccn2)C(=O)N[C@H](C(=O)NC(C=O)Cc2ccccc2)C(C)C)cc1 (some centres unmarked)
[1]; tested form: 2HCl
  IC50: 1.1 µM

## Cc1ccc(S(=O)(=O)N=C(N)NCCC[C@H](NC(=O)OCc2c(Cl)cccc2Cl)C(=O)N[C@H](C(=O)NC(C=O)Cc2ccccc2)C(C)C)cc1 (some centres unmarked)
[2]
  IC50: 0.0011 µM
[1]
  IC50: 7.3 µM

## Cc1ccc(S(=O)(=O)N=C(N)NCCC[C@H](NC(=O)c2cnccn2)C(=O)N[C@H](C(=O)N[C@H](CO)Cc2ccccc2)C(C)C)cc1
[1]
  IC50: 18 µM

## Cc1ccc(S(=O)(=O)N=C(N)NCCC[C@H](NC(=O)COc2ccc(F)cc2F)C(=O)N[C@H](C(=O)NC(C=O)Cc2ccccc2)C(C)C)cc1 (some centres unmarked)
[2]
  IC50: 0.041 µM
[1]
  IC50: 0.22 µM

## Cc1ccc(S(=O)(=O)N=C(N)NCCC[C@H](NS(=O)(=O)c2ccc(C)cc2)C(=O)N[C@H](C(=O)NC(C=O)Cc2ccccc2)C(C)C)cc1 (some centres unmarked)
[1]
  IC50: 30 µM

## Cc1ccc(S(=O)(=O)N=C(N)NCCC[C@H](NC(=O)Cc2ccc(-n3ccnn3)cc2)C(=O)N[C@H](C(=O)NC(C=O)Cc2ccccc2)C(C)C)cc1 (some centres unmarked)
[1]
  IC50: 0.19 µM

Read-outs that look alike come from different tables or passages of the source.
